Experiments:
Bacillus anthracis [1] = assay: Antimicrobial activity against Bacillus anthracis A0102 assessed as change in fluorescence threshold cycle at 0.12 ug/ml after 4 hrs by real-time PCR viability assay relative to control
Bacillus anthracis [2] = assay: Antimicrobial activity against Bacillus anthracis 240 assessed as change in fluorescence threshold cycle at 0.5 ug/ml after 4 hrs by real-time PCR viability assay relative to control
Bacillus anthracis [3] = assay: Antimicrobial activity against Bacillus anthracis A0293 assessed as change in fluorescence threshold cycle at 2 ug/ml after 4 hrs by real-time PCR viability assay relative to control
Bacillus anthracis [4] = assay: Antimicrobial activity against Bacillus anthracis A0193 assessed as change in fluorescence threshold cycle at 0.06 ug/ml after 4 hrs by real-time PCR viability assay relative to control
Bacillus anthracis [5] = assay: Antimicrobial activity against Bacillus anthracis A0102 assessed as change in fluorescence threshold cycle at 2 ug/ml after 4 hrs by real-time PCR viability assay relative to control
Bacillus anthracis [6] = assay: Antimicrobial activity against Bacillus anthracis A03768 assessed as change in fluorescence threshold cycle at 1 ug/ml after 4 hrs by real-time PCR viability assay relative to control
Bacillus anthracis [7] = assay: Antimicrobial activity against Bacillus anthracis A0193 assessed as change in fluorescence threshold cycle at 16 ug/ml after 4 hrs by real-time PCR viability assay relative to control
Bacillus anthracis [8] = assay: Antimicrobial activity against Bacillus anthracis A0293 assessed as change in fluorescence threshold cycle at 1 ug/ml after 4 hrs by real-time PCR viability assay relative to control
Bacillus anthracis [9] = assay: Antimicrobial activity against Bacillus anthracis A0488 assessed as change in fluorescence threshold cycle at 8 ug/ml after 4 hrs by real-time PCR viability assay relative to control
Bacillus anthracis [10] = assay: Antimicrobial activity against Bacillus anthracis A0293 assessed as change in fluorescence threshold cycle at 4 ug/ml after 4 hrs by real-time PCR viability assay relative to control
Bacillus anthracis [11] = assay: Antimicrobial activity against Bacillus anthracis A0293 assessed as change in fluorescence threshold cycle at 0.12 ug/ml after 4 hrs by real-time PCR viability assay relative to control
Bacillus anthracis [12] = assay: Antimicrobial activity against Bacillus anthracis A0419 assessed as change in fluorescence threshold cycle at 1 ug/ml after 4 hrs by real-time PCR viability assay relative to control
Bacillus anthracis [13] = assay: Antimicrobial activity against pXO1-positive and pXO2 negative Bacillus anthracis 34F2 assessed as change in fluorescence threshold cycle at 8 ug/ml after 4 hrs by real-time PCR viability assay relative to control
Bacillus anthracis [14] = assay: Antimicrobial activity against Bacillus anthracis A0465 assessed as change in fluorescence threshold cycle at 0.5 ug/ml after 4 hrs by real-time PCR viability assay relative to control
Bacillus anthracis [15] = assay: Antimicrobial activity against Bacillus anthracis A0419 assessed as change in fluorescence threshold cycle at 16 ug/ml after 4 hrs by real-time PCR viability assay relative to control
Bacillus anthracis [16] = assay: Antimicrobial activity against Bacillus anthracis A0293 assessed as change in fluorescence threshold cycle at 0.5 ug/ml after 4 hrs by real-time PCR viability assay relative to control
Bacillus anthracis [17] = assay: Antimicrobial activity against pXO1-positive and pXO2 negative Bacillus anthracis 34F2 assessed as change in fluorescence threshold cycle at 4 ug/ml after 4 hrs by real-time PCR viability assay relative to control
Bacillus anthracis [18] = assay: Antimicrobial activity against Bacillus anthracis A0149 assessed as change in fluorescence threshold cycle at 0.5 ug/ml after 4 hrs by real-time PCR viability assay relative to control
Bacillus anthracis [19] = assay: Antimicrobial activity against Bacillus anthracis A0149 assessed as change in fluorescence threshold cycle at 1 ug/ml after 4 hrs by real-time PCR viability assay relative to control
Bacillus anthracis [20] = assay: Antimicrobial activity against Bacillus anthracis A0462 assessed as change in fluorescence threshold cycle at 0.06 ug/ml after 4 hrs by real-time PCR viability assay relative to control
Bacillus anthracis [21] = assay: Antimicrobial activity against Bacillus anthracis A0488 assessed as change in fluorescence threshold cycle at 16 ug/ml after 4 hrs by real-time PCR viability assay relative to control
Bacillus anthracis [22] = assay: Antimicrobial activity against Bacillus anthracis A0465 assessed as change in fluorescence threshold cycle at 4 ug/ml after 4 hrs by real-time PCR viability assay relative to control
Bacillus anthracis [23] = assay: Antimicrobial activity against Bacillus anthracis A0419 assessed as change in fluorescence threshold cycle at 2 ug/ml after 4 hrs by real-time PCR viability assay relative to control
Bacillus anthracis [24] = assay: Antimicrobial activity against Bacillus anthracis A0102 assessed as change in fluorescence threshold cycle at 0.06 ug/ml after 4 hrs by real-time PCR viability assay relative to control
Bacillus anthracis [25] = assay: Antimicrobial activity against Bacillus anthracis A0188 assessed as change in fluorescence threshold cycle at 16 ug/ml after 4 hrs by real-time PCR viability assay relative to control
Bacillus anthracis [26] = assay: Antimicrobial activity against Bacillus anthracis A0188 assessed as change in fluorescence threshold cycle at 2 ug/ml after 4 hrs by real-time PCR viability assay relative to control
Bacillus anthracis [27] = assay: Antimicrobial activity against Bacillus anthracis A0462 assessed as change in fluorescence threshold cycle at 2 ug/ml after 4 hrs by real-time PCR viability assay relative to control
Bacillus anthracis [28] = assay: Antimicrobial activity against Bacillus anthracis A0193 assessed as change in fluorescence threshold cycle at 1 ug/ml after 4 hrs by real-time PCR viability assay relative to control

| SMILES | deltaCT (Bacillus anthracis [1]) | deltaCT (Bacillus anthracis [2]) | deltaCT (Bacillus anthracis [3]) | deltaCT (Bacillus anthracis [4]) | deltaCT (Bacillus anthracis [5]) | deltaCT (Bacillus anthracis [6]) | deltaCT (Bacillus anthracis [7]) | deltaCT (Bacillus anthracis [8]) | deltaCT (Bacillus anthracis [9]) | deltaCT (Bacillus anthracis [10]) | deltaCT (Bacillus anthracis [11]) | deltaCT (Bacillus anthracis [12]) | deltaCT (Bacillus anthracis [13]) | deltaCT (Bacillus anthracis [14]) | deltaCT (Bacillus anthracis [15]) | deltaCT (Bacillus anthracis [16]) | deltaCT (Bacillus anthracis [17]) | deltaCT (Bacillus anthracis [18]) | deltaCT (Bacillus anthracis [19]) | deltaCT (Bacillus anthracis [20]) | also measured |
| --- | --- | --- | --- | --- | --- | --- | --- | --- | --- | --- | --- | --- | --- | --- | --- | --- | --- | --- | --- | --- | --- |
| O=C(O)c1cn(C2CC2)c2cc(N3CCNCC3)c(F)cc2c1=O [CIPROFLOXACIN] | 0.82 | 8.17 | 7.07 | 7.48 | 8.22 | 8.74 | 7.21 | 0.66 | 0.41 | 4.89 | 2.13 | 8.6 | 6.87 | 5.34 | 7.78 | 9.19 | 0.61 | 8.8 | 2.53 | 0.8 | deltaCT (Bacillus anthracis [21]): 6.83; deltaCT (Bacillus anthracis [22]): 0.1; deltaCT (Bacillus anthracis [23]): 7.03; deltaCT (Bacillus anthracis [24]): 6.54; deltaCT (Bacillus anthracis [25]): 7.67; deltaCT (Bacillus anthracis [26]): 0.88; deltaCT (Bacillus anthracis [27]): 5.59; deltaCT (Bacillus anthracis [28]): 8.21 |
| C[C@H]1c2cccc(O)c2C(=O)C2=C(O)[C@]3(O)C(=O)C(C(N)=O)=C(O)[C@@H](N(C)C)[C@@H]3[C@@H](O)[C@@H]21.O [DOXYCYCLINE] | 6.46 | 7.86 | 8.77 | 8.21 | 6.37 | 8.28 | 1.64 | 8.81 | 7.96 | 7.93 | 7.53 | 8.33 | 7.73 | 7.89 | 6.61 | 7.38 | 8.2 | 7.01 | 8.1 | 7.36 | deltaCT (Bacillus anthracis [21]): 0.56; deltaCT (Bacillus anthracis [22]): 8.89; deltaCT (Bacillus anthracis [23]): 9.27; deltaCT (Bacillus anthracis [24]): 7.78; deltaCT (Bacillus anthracis [25]): 7.24; deltaCT (Bacillus anthracis [26]): 7.87; deltaCT (Bacillus anthracis [27]): 8.39; deltaCT (Bacillus anthracis [28]): 9.32 |

Reference: ChEMBL document CHEMBL1275243 (2010)
